Pooled drug test results. Numbers come from NIAID ChemDB, via PubChem.

Common to all: whole-cell or culture tests; agent: Pneumocystis carinii; endpoint: inhibition

Blank or dashed fields: not listed here. Inhibition is in % at the dose shown (toxicity tests: loss of growth or viability). Neighbouring rows are from separate reports.

structure	tested at	cell line	setting	result
N=C(N)c1ccc(OC/C=C/COc2ccc(C(=N)N)cc2)cc1	0.2 µM	-	-	81%
CCCCCN=C(N)c1ccc(N2CCN(c3ccccc3)CC2)cc1	0.1 µg/mL	-	-	13%
N=C(N)c1ccc(OC/C=C\COc2ccc(C(=N)N)cc2)cc1	0.2 µM	-	-	91%
c1ccc(CNCCCNCCCCCCCNCCCNCc2ccccc2)cc1	3 µM	-	-	38%
CCC(C)CN=C(N)c1ccc(N2CCN(c3ccccc3)CC2)cc1	50 µg/mL	-	-	97%
NC(=NCC1CCCC1)c1ccc(N2CCCN(c3ccc(C(N)=NCC4CCCC4)cc3)CC2)cc1	1 µM	-	-	0%
CCCCCCCN=C(N)c1ccc(N2CCN(c3ccccc3)CC2)cc1	0.1 µg/mL	-	-	0%
CC(=O)N1CCN(c2ccc(OC[C@H]3CO[C@](Cn4ccnc4)(c4ccc(Cl)cc4Cl)O3)cc2)CC1	10 µg/mL	WI-38	10 d	55%
CC(C)CCN=C(N)c1ccc(N2CCN(c3ccccc3)CC2)cc1	50 µg/mL	-	-	96%
NC(=NCCCO)c1ccc(N2CCCN(c3ccc(C(N)=NCCCO)cc3)CC2)cc1	1 µM	-	-	0%
CCCCCCCCN=C(N)c1ccc(N2CCN(c3ccccc3)CC2)cc1	10 µg/mL	-	-	93%
CCC(C)n1ncn(-c2ccc(N3CCN(c4ccc(OC[C@H]5CO[C@](Cn6cncn6)(c6ccc(Cl)cc6Cl)O5)cc4)CC3)cc2)c1=O	10 µg/mL	WI-38	10 d	23%
COCCn1ccc(=O)c(O)c1C	72 µM	Human fibroblasts	7 d	81%
N=C(N)c1ccc(OCCCCOc2ccc(C(=N)N)cc2)cc1	0.2 µM	-	-	61%
NC(=NCCc1ccccc1)c1ccc(N2CCN(c3ccccc3)CC2)cc1	10 µg/mL	-	-	94%
CC(=O)Nc1ccc(C(=O)O)cc1	1000 µM	-	-	99%
NC(=NCc1ccccc1)NC(=O)c1nc(Cl)c(N)nc1N	100 µM	-	-	6%
c1cc(N2CCCN(c3ccc(C4=NCCCN4)cc3)CC2)ccc1C1=NCCCN1	1 µM	-	-	68%
CC(=O)N(O)CCCCCNC(=O)CCC(=O)N(O)CCCCCNC(=O)CCC(=O)N(O)CCCCCN.[Mg]	30 µM	Human fibroblasts	7 d	91%
CCCN=C(N)c1ccc(N2CCN(c3ccccc3)CC2)cc1	0.1 µg/mL	-	-	48%
O=C(Cn1ccnc1[N+](=O)[O-])NCCO	10 µg/mL	WI-38	10 d	27%
CC(=O)N(O)CCCCCNC(=O)CCC(=O)N(O)CCCCCNC(=O)CCC(=O)N(O)CCCCCN	7.5 µM	Human fibroblasts	7 d	56%

2 of the rows above, restated:

structure | tested at | cell line | setting | result
NC(=NCCc1ccccc1)c1ccc(N2CCN(c3ccccc3)CC2)cc1 | 10 µg/mL | - | - | 94%
NC(=NCc1ccccc1)NC(=O)c1nc(Cl)c(N)nc1N | 100 µM | - | - | 6%